This data set relates to male ICR mice. The method, then: Az acute toxicity was estimated for its intravenous (iv) and intramuscular (im) administration to male ICR mice in a stepwise procedure.
For the iv route of administration, 20 mice were randomly divided in 5 groups of 4 animals each. The animals of each group received a single dose of Az (0.3, 0.4, 0.5, 0.6, or 0.7 mg/kg, respectively) injected into the lateral tail vein at a volume of 1 mL/kg. For the im route of administration, first two experimental groups of 3 animals each were formed. Az at doses of 0.75 and 1.0 mg/kg, respectively, was injected into the quadriceps muscle of the thigh (quadriceps femoris muscle) of two mouse hind limbs at a volume of 0.5 mL/kg to each muscle. Then, five experimental groups of 5 animals each were formed. Az was injected into the quadriceps muscle of the thigh (quadriceps femoris muscle) of the two hind limbs of male ICR mice at doses of 0.8, 0.775, 0.75, 0.725 and 0.7 mg/kg. The injection volume to each limb was 1 mL/kg. Further, neurotoxic manifestations were recorded in animals at 5, 10, 20, 30, 60 and 90 min and 24 h after administration using the functional observation battery, the number of death was counted as well.
For the iv and im route of administration, the median lethal dose (LD50) was calculated using a probit analysis. For the im route of administration, the maximum tolerated dose was determined. […]

Where two headings read alike, the source gives them in different places. No end group written: not given here.

With `C=CC[N+]1([C@H]2C[C@H]3[C@@H]4CC[C@H]5C[C@H](O)[C@@H](N6CCOCC6)C[C@]5(C)[C@H]4CC[C@]3(C)[C@H]2OC(C)=O)CCCC1` [rocuronium, Rocuronium Bromide, reference compound], for the setting “rocuronium im 0.13 mg/kg, n = 1”, the lethality entry is on record as “lethal”.

“DNWWPKPPHQGPRPPRPRPKP-NH2 [Az, azemiopsin]”: the lethality entry (single im 0.7 mg/kg) is “all mice were alive”.
